Consider one sequence from publication PMC4894688.

The target in data set [1] is His6-GcsR (Pseudomonas aeruginosa PAO1) (UniProt Q9I133). Kind of data set: competition with a labelled probe. Particulars: 100 nM unlabeled PPA5530 vs Cy5-PgcvH2; EMSA: 25 mM Tris-acetate pH 8.0, 8 mM Mg acetate, 10 mM KCl, 1 mM DTT, 30 min at 30 C, 2 nM probe; native PAGE; recombinant protein; protein details: N-terminal His6; label: 5' Cy5 (unlabeled as competitor); probe letters rebuilt from the primers and the genome; part of a longer molecule. Background: Mobility shift assays separate free from complexed probe on a gel.

For data set [2] the target is unchanged. Briefly: EMSA. Particulars: 200 nM protein; EMSA: 25 mM Tris-acetate pH 8.0, 8 mM Mg acetate, 10 mM KCl, 1 mM DTT, 30 min at 30 C, 2 nM probe; native PAGE; recombinant protein; protein details: N-terminal His6; label: 5' Cy5 (unlabeled as competitor); probe letters rebuilt from the primers and the genome; part of a longer molecule.

Construct, isoform or probe ends are uncertain for at least one entry. Negatives hold for the conditions tested.

“CGCGGGAAAGCCGCGTGGGGACTGGGTTGGAAGAGGAGCGGGGTGGTCTTGGCCGAGCGGGAGTCCGCCGACCGGGAGTGTGGATAAGCGGAAATCCGCCGATCCTTCAGGGCAAAGGGTCCGATAGCGACACCAGGTGCAGGCGAGGGCGAATAACCGCAGCGTGGTTATCCGCCGATTCGACGGCAGGCCGGGATCGCTTGGCTCTCAGTG (double strand) [PPA5530]”: the binding result in data set [1] and in data set [2] was “no binding” throughout.
